A mixed list of measured activities; the numbers were collected in NIAID ChemDB.

All rows: tests in culture; organism: Herpes simplex virus 1; read by: cytopathic effect; endpoint: EC50

Blank or dashed fields: not listed here. Rows are shuffled and stem from different studies. ECn is the concentration giving n% inhibition of infection, replication or growth.

compound | strain | cells | result
COC(c1cn([C@H]2C[C@H](O)[C@@H](CO)O2)c(=O)[nH]c1=O)C(Br)I | E-377 | HFF | >100 µM
Nc1ncnc2c1ncn2[C@@H]1C=C(CO)[C@@H](O)[C@H]1O | KOS | E6SM | 70 µg/mL
Nc1nc(=O)n([C@H]2C[C@H](O)[C@@H](CO)O2)cc1/C=C/Cl | McIntyre | PRK | 0.07 µg/mL
O=c1[nH]c(=O)n([C@H]2C[C@H](O)[C@@H](CO)O2)cc1I | McIntyre | PRK | 0.15 µg/mL
NC1CSCON2CCc3c([nH]c4ccccc34)[C@H]12 | KOS | PRK | 0.7 µg/mL
C=C[C@H](O)C1=C[C@@H](n2cnc3c(N)ncnc32)[C@H](O)[C@@H]1O | KOS | E6SM | >100 µg/mL
CON1CCc2c([nH]c3ccccc23)[C@@H]1[C@@H](N)CSC | B2006 (TK-) | PRK | >100 µg/mL
CCCCCCCC#Cc1cn(S(=O)(=O)c2ccc(C)cc2)c(=O)[nH]c1=O | KOS | HEL | >200 µM
Nc1ncnc2c1ncn2[C@@H]1O[C@H](CO)[C@@H](O)[C@H]1OP(=O)(O)OC[C@H]1O[C@@H](n2cnc3c(N)ncnc32)[C@H](OP(=O)(O)OC[C@H]2O[C@@H](n3cc(/C=C/Br)c(=O)[nH]c3=O)C[C@@H]2O)[C@@H]1O | KOS | PRK | 0.07 µg/mL
CC[C@H](O)C1=C[C@@H](n2cnc3c(N)ncnc32)[C@H](O)[C@@H]1O | B2006 (TK-) | E6SM | >200 µg/mL
O=c1[nH]c(=O)n([C@H]2C[C@H](O)[C@@H](CO)O2)cc1/C=C/Br | KOS | PRK | <0.007 µg/mL
OC[C@H]1O[C@@H](c2cc(C(F)(F)F)c(F)cc2F)C[C@@H]1O | VMW 1837 | E6SM | >400 µg/mL
Cc1cn([C@@H]2O[C@H](CO)[C@@H](O)[C@@H]2F)c(=O)[nH]c1=O | KOS | PRK | <0.04 µg/mL
Nc1nc2c(ncn2COCCOP(=O)(O)O[C@@H]2[C@H](O)[C@@H](COP(=O)(O)O[C@@H]3[C@H](O)[C@@H](CO)O[C@H]3n3cnc4c(N)ncnc43)O[C@H]2n2cnc3c(N)ncnc32)c(=O)[nH]1 | McIntyre | PRK | 1 µg/mL
COC(c1cn([C@H]2C[C@H](O)[C@@H](CO)O2)c(=O)[nH]c1=O)C(Br)Br | E-377 | HFF | >56.3 µM
Cc1cc([C@H]2C[C@H](O)[C@@H](CO)O2)c(F)cc1F | KOS/ACV-R | E6SM | >400 µg/mL
[N-]=[N+]=NCc1cn([C@H]2C[C@H](O)[C@@H](CO)O2)c(=O)[nH]c1=O | VDX348 | PRK | 7 µg/mL
Nc1nc(=O)n([C@@H]2O[C@H](CO)[C@@H](O)[C@@H]2F)cc1I | KOS | PRK | <0.02 µg/mL
CSCc1cn([C@H]2C[C@H](O)[C@@H](CO)O2)c(=O)[nH]c1=O | VDO374 | PRK | 2 µg/mL
Cc1ccc(S(=O)(=O)n2cc(I)c(=O)[nH]c2=O)cc1 | KOS | HEL | >200 µM
O=c1[nH]c(=O)n([C@H]2C[C@H](O)[C@@H](CO)O2)cc1I | - | HEP-2 | <0.3 µg/mL
Nc1nc2c(ncn2CCC(CO)CO)c(=O)[nH]1 | K1R | VERO | >800 µM
O=[N+]([O-])c1cc([C@H]2C[C@H](O)[C@@H](CO)O2)c(F)cc1F | McIntyre | E6SM | >400 µg/mL
O=c1[nH]c(=O)n([C@H]2C[C@H](O)[C@@H](CO)O2)cc1/C=C\Cl | McIntyre | PRK | 0.2 µg/mL
CCCCc1cc2cnc(=O)[nH]c2o1 | KOS | HEL | >200 µM
Nc1ncc2c(ncn2COC(CO)CO)n1 | K1 | VERO | 0.6 µM
Nc1nc2c(ncn2COCCO)c(=O)[nH]1 | S6434 (acyclovir-susceptible) | HFF | 0.5 µg/mL
COC(c1cn([C@H]2C[C@H](O)[C@@H](CO)O2)c(=O)[nH]c1=O)C(I)I | E-377 | HFF | >93 µM
O=Cc1cn([C@H]2C[C@H](O)[C@@H](CO)O2)c(=O)[nH]c1=O | VEX538 | PRK | 2 µg/mL
CCCCCCCCCCC#Cc1c[nH]c(=O)[nH]c1=O | KOS | HEL | >40 µM
OC[C@H]1O[C@H](c2cc(Cl)c(F)cc2F)C[C@@H]1O | KOS | E6SM | >400 µg/mL
O=c1[nH]c(=O)n([C@H]2C[C@H](O)[C@@H](CO)O2)cc1C(O)C(Br)I | E-377 | HFF | 0.7 µM
CCCCCCC#Cc1c[nH]c(=O)[nH]c1=O | KOS | HEL | >200 µM
COC(c1cn([C@H]2C[C@H](O)[C@@H](CO)O2)c(=O)[nH]c1=O)C(Cl)Br | E-377 | HFF | 3.7 µM
CCCCCCCC#Cc1c[nH]c(=O)[nH]c1=O | KOS | HEL | >40 µM

4 of the rows above, restated:

{"compound": "CCCCc1cc2cnc(=O)[nH]c2o1", "strain": "KOS", "cells": "HEL", "result": ">200 µM"}
{"compound": "O=c1[nH]c(=O)n([C@H]2C[C@H](O)[C@@H](CO)O2)cc1I", "cells": "HEP-2", "result": "<0.3 µg/mL"}
{"compound": "Nc1nc2c(ncn2CCC(CO)CO)c(=O)[nH]1", "strain": "K1R", "cells": "VERO", "result": ">800 µM"}
{"compound": "OC[C@H]1O[C@H](c2cc(Cl)c(F)cc2F)C[C@@H]1O", "strain": "KOS", "cells": "E6SM", "result": ">400 µg/mL"}